Compound potency records, mixed from different reports. Data source: NIAID ChemDB in PubChem.

All rows: whole-cell or culture tests

Two numbers with a dash give a range or band. Inhibition is in % at the dose shown (toxicity tests: loss of growth or viability). Zones are inhibition diameters on agar. A number after MIC or MFC names an inhibition level or a share of isolates. Neighbouring rows are from separate reports. An empty or dashed field is not shown. ECn: concentration that inhibits the pathogen or its effect by n%.

SMILES | strain or isolate | setting | read by | read-out | agent | tested at | result
C[C@@H](c1ncncc1F)[C@](O)(Cn1cncn1)c1ccc(F)cc1F |  |  |  | MIC50 | Candida lusitaniae |  | 0.008–0.5 µg/mL
O/N=C\c1ccccc1 |  |  |  | MIC | Candida lipolytica |  | 4130 µM
COC(=O)[C@H]1[C@@H]2C[C@@H](O[C@@H]3O[C@H](C)[C@@H](O)[C@H](N)[C@@H]3O)/C=C/C=C/C=C/C=C/C=C/C=C/C=C/[C@H](C)[C@@H](O)[C@H](C)[C@H](C)OC(=O)C[C@H](O)C[C@H](O)[C@@H](O)CC[C@H](O)C[C@H](O)C[C@](O)(C[C@@H]1O)O2 | 40 isolates | pH 6 | broth dilution | MIC | Candida glabrata |  | 0.125 µg/mL
O=C(NN=Cc1ccc([N+](=O)[O-])cc1)c1snnc1C(F)(F)F | NCIM 3462 |  | agar diffusion / agar | zone | Candida rugosa | 100 µg/mL | 0 mm
C/C(=N/O)C(Cl)(Cl)Cl |  |  |  | MIC100 | Candida lipolytica |  | 6450 µM
CC(C)(O)c1cn(-c2ccc([N+](=O)[O-])cc2)nn1 | URM 4990 |  | broth dilution | inhibition | Candida albicans | 2048 µg/mL | 0%
CC(=O)OC[C@H]1O[C@@H](O[C@@H]2[C@@H](N=[N+]=[N-])[C@H](O)[C@H](O)[C@H]3OC(C)(C)O[C@H]32)[C@H](OC(C)=O)[C@@H](OC(C)=O)[C@H]1OC(C)=O | C 131 |  | broth dilution / turbidity | inhibition | Candida tropicalis | 31.25 µg/mL | 14.97%
O/N=C\c1cccs1 |  |  |  | MIC | Candida lipolytica |  | 3930 µM
COc1ccc(C=NNC(=O)c2snnc2C(F)(F)F)cc1 | NCIM 3462 |  | agar diffusion / agar | zone | Candida rugosa | 100 µg/mL | 0 mm
C=CC(C)(C)c1cc(C2CC(=O)c3c(cc(O)c(CC=C(C)C)c3O)O2)c(O)cc1O | laryngeal prosthesis isolate |  | agar diffusion / agar | zone | Candida krusei | 2 mg/mL | 12 mm
O=C(CCn1ccnc1)c1cccc(C(O)c2ccc(Cl)c(Cl)c2)c1 | RTCC 1377 |  | broth dilution | MIC | Candida guilliermondii |  | 16 µg/mL
Nc1[nH]c(=O)ncc1F | 40 isolates | pH 4 | broth dilution | EC90 | Candida glabrata |  | 0.125 µg/mL
CC(C)(O)c1cn(-c2ccc3ccccc3c2)nn1 | URM 3624 |  | broth dilution | inhibition | Candida parapsilosis | 2048 µg/mL | 0%
O=C(NN=Cc1cccs1)c1snnc1C(F)(F)F | NCIM 3462 |  | agar diffusion / agar | zone | Candida rugosa | 100 µg/mL | 0 mm
c1ccc(C(c2ccccc2)n2nnc3ccccc32)cc1 |  |  | broth dilution | MFC | Candida dubliniensis |  | >256 µg/mL
C[C@@H](c1ncncc1F)[C@](O)(Cn1cncn1)c1ccc(F)cc1F |  |  | broth dilution | MIC90 | Candida tropicalis |  | 2 µg/mL
O/N=C\c1ccc(O)cc1 |  |  | broth dilution | MIC100 | Candida lipolytica |  | >7290 µM
O=C(c1ccccc1)C(c1ccccc1)n1cnc2ccccc21 |  |  | broth dilution | MFC | Candida dubliniensis |  | 256 µg/mL
CC1C(=O)N(CCCCc2ccccc2)C(=O)C1C | CCC 134-2000 |  | broth dilution / turbidity | MIC | Candida lusitaniae |  | 125 µg/mL
CCCCCOc1ccc(-c2cc(-c3ccc(C(=O)N[C@H]4C[C@@H](O)[C@@H](O)NC(=O)[C@@H]5[C@@H](O)[C@@H](C)CN5C(=O)[C@H]([C@H](O)CC(N)=O)NC(=O)[C@H]([C@H](O)[C@@H](O)c5ccc(O)c(OS(=O)(=O)O)c5)NC(=O)[C@@H]5C[C@@H](O)CN5C(=O)[C@H]([C@@H](C)O)NC4=O)cc3)no2)cc1 |  |  |  | MIC50 | Candida guilliermondii |  | 0.015–16 µg/mL
CC(=NNC(=O)c1snnc1C(F)(F)F)c1ccccn1 | NCIM 3462 |  | agar diffusion / agar | zone | Candida rugosa | 100 µg/mL | 0 mm
O=C(O)c1ccc(C[C@H](C(=O)O)[C@@H](O)C(=O)O)cc1 | CBS 7987 |  |  | MIC | Candida pseudotropicalis |  | >4 µg/mL
COc1ccc(/C=N\O)cc1 |  |  | broth dilution | MFC | Candida famata |  | 6620 µM
CCCCCCCCCCCCCCCC(=O)NC(CCCCN)C(=O)NC(CCCCN)C(N)=O | 195 |  | broth dilution | MIC | Candida guilliermondii |  | 4 µg/mL
CC(C)(O)c1cn(-c2cccc3ccccc23)nn1 | URM 4804 |  | broth dilution | inhibition | Candida parapsilosis | 2048 µg/mL | 0%
CC(=O)N1CCN(c2ccc(OC[C@H]3CO[C@](Cn4ccnc4)(c4ccc(Cl)cc4Cl)O3)cc2)CC1 | G2 |  | agar diffusion / agar | zone | Candida glabrata | 20 mg/mL | 12 mm
COc1ccc(C(c2ccc(OC)cc2)n2cncn2)cc1 |  |  | agar | MIC90 | Candida dubliniensis |  | >256 µg/mL
O=C1c2ccccc2CC1Cn1ccnc1 | RTCC1248 |  | broth dilution | MIC | Candida guilliermondii |  | >64 µg/mL
Clc1ccccc1C(c1ccccc1)(c1ccccc1)n1ccnc1 | 40 isolates | pH 4 | broth dilution | EC90 | Candida glabrata |  | >16 µg/mL
O=C1C2=C(OC(CI)C2)C(=O)c2ccccc21 | Clinical isolate |  | broth dilution | MIC | Candida tropicalis |  | 20.15 µg/mL
O=C(NN=C1CCCCC1)c1snnc1C(F)(F)F | NCIM 3462 |  | agar diffusion / agar | zone | Candida rugosa | 100 µg/mL | 0 mm
C[C@@H]1CC(=O)N(CCCc2ccccc2)C1=O | CCC 134-2000 |  | broth dilution / turbidity | MIC | Candida lusitaniae |  | 125 µg/mL
O=C1S/C(=C\c2ccoc2)C(=O)N1CC(O)(Cn1nccn1)c1ccc(F)cc1F | Fluconazole-resistant 0710922 |  |  | MIC80 | Candida colliculosa |  | 74 µg/mL
CCC(C)CC(C)CCCCCCCCC(=O)N[C@H]1C[C@@H](O)[C@H](NCCN)NC(=O)[C@@H]2[C@@H](O)CCN2C(=O)[C@H]([C@H](O)CCN)NC(=O)[C@H]([C@H](O)[C@@H](O)c2ccc(O)cc2)NC(=O)[C@@H]2C[C@@H](O)CN2C(=O)[C@H]([C@@H](C)O)NC1=O | UTHSC 11-586 |  | broth dilution | MIC | Candida lusitaniae |  | 2 µg/mL
CC1CC(=O)N(CCCc2ccccc2)C1=O | CCC 124-2000 |  | broth dilution / turbidity | MIC | Candida parapsilosis |  | 125 µg/mL
CCC(C)CC(C)CCCCCCCCC(=O)N[C@H]1C[C@@H](O)[C@H](NCCN)NC(=O)[C@@H]2[C@@H](O)CCN2C(=O)[C@H]([C@H](O)CCN)NC(=O)[C@H]([C@H](O)[C@@H](O)c2ccc(O)cc2)NC(=O)[C@@H]2C[C@@H](O)CN2C(=O)[C@H]([C@@H](C)O)NC1=O | 40 isolates | pH 7 | broth dilution | MIC | Candida glabrata |  | 0.5 µg/mL
C=CCc1ccc(O)c(OC)c1 | 3277 |  | turbidity | MIC90 | Candida parapsilosis |  | 485 µg/mL
O=C(CCn1ccnc1)c1ccc(-c2ccccc2)cc1 | RTCC 1074 |  | broth dilution | MIC | Candida kefyr |  | 2 µg/mL
Clc1ccc(C(c2ccccc2)n2cnc3ccccc32)cc1 |  |  | broth dilution | MFC | Candida dubliniensis |  | >256 µg/mL
O/N=C/c1ccc(O)cc1 |  |  |  | MIC | Candida famata |  | >7290 µM
Cc1ccc(-n2cc(C(C)(C)O)nn2)cc1C | URM 4987 |  | broth dilution | inhibition | Candida albicans | 2048 µg/mL | 0%
O=C(CCn1ccnc1)c1cccc(C(O)c2ccc(Br)cc2)c1 | RTCC 1019 |  | broth dilution | MIC | Candida kefyr |  | 1 µg/mL
Nc1ncccc1-c1cc(Cc2ccc(COc3ccccn3)cc2)no1 |  |  | broth dilution | MIC90 | Candida glabrata |  | 0.06 µg/mL

The last 6 rows once more:

SMILES,strain or isolate,setting,read by,read-out,agent,tested at,result
O=C(CCn1ccnc1)c1ccc(-c2ccccc2)cc1,RTCC 1074,,broth dilution,MIC,Candida kefyr,,2 µg/mL
Clc1ccc(C(c2ccccc2)n2cnc3ccccc32)cc1,,,broth dilution,MFC,Candida dubliniensis,,>256 µg/mL
O/N=C/c1ccc(O)cc1,,,,MIC,Candida famata,,>7290 µM
Cc1ccc(-n2cc(C(C)(C)O)nn2)cc1C,URM 4987,,broth dilution,inhibition,Candida albicans,2048 µg/mL,0%
O=C(CCn1ccnc1)c1cccc(C(O)c2ccc(Br)cc2)c1,RTCC 1019,,broth dilution,MIC,Candida kefyr,,1 µg/mL
Nc1ncccc1-c1cc(Cc2ccc(COc3ccccn3)cc2)no1,,,broth dilution,MIC90,Candida glabrata,,0.06 µg/mL